Anti-infective test results gathered from many reports (values: NIAID ChemDB through PubChem).

All rows: tests in culture; species: Hepatitis C virus; read-out: EC50

Lines come from different laboratories, so protocols vary. ECn: concentration that inhibits the pathogen or its effect by n%. a–b is a range or a potency band. Blank or dashed fields: not listed here.

| structure | strain | read by | setting | result |
|---|---|---|---|---|
| COC(=O)N[C@@H](C(=O)N1CCC[C@@H]1c1ncc(-c2ccc(-c3ccc(-c4cnc([C@H]5CCCN5C(=O)[C@H](NC(=O)OC)c5ccccc5)[nH]4)nn3)nn2)[nH]1)c1ccccc1 | 1b | - | - | 0.001–0.099 µM |
| Cc1ccc2nc(Cl)c(Cn3c(C(=O)O)c(-c4ccc[nH]c4=O)c4c5occc5c(F)cc43)cc2c1 | - | replicon | - | <0.5 µM |
| CCCC(NC(=O)C1C2CCCC2CN1C(=O)C(C)N1CCCC1)C(=O)C(=O)NC1CC1 | 1b | replicon | - | <100 µM |
| CC(C)CCn1c(=O)c(C2=NS(=O)(=O)c3ccccc3N2)cc2c(O)cccc21 | - | replicon | - | 53.8 µM |
| C=CC1CC1(NC(=O)[C@@H]1C[C@@H](Oc2cc(-c3ccccc3)nc3cc(OC)ccc23)CN1C(=O)[C@H](C(C)C)N1CCCCC1)C(=O)O | 1b | replicon | - | >100 µM |
| O=C(Nc1cccc(-c2cc(-c3ccccc3OC(F)(F)F)no2)c1)C(Cl)Cl | - | replicon | - | ≤10 µM |
| CC(C)(C)CCN1C(=O)C(C2=NS(=O)(=O)c3cc(NS(C)(=O)=O)ccc3N2)=C(O)[C@@H]2C3CCC(CC3)[C@@H]21 | 1b | replicon | - | 0.004 µM |
| CCOc1nc(NCc2ccc(F)cc2)nc2ccc(-c3ccc(C(=O)NC(C)(C)CN4CCCC4)cc3)nc12 | - | replicon | - | <0.1 µM |
| COC(=O)N[C@H](C(=O)N[C@@H](C)c1ncc(-c2ccc(-c3ccc(-c4cnc([C@@H](C)NC(=O)[C@H](NC(=O)OC)c5ccccc5)[nH]4)cc3)nc2)[nH]1)c1ccccc1 | 1b | - | - | 0.00001–0.000999 µM |
| COc1ncc(OC)c(N2CCN(S(=O)(=O)c3ccc(OC(F)(F)F)cc3)C(C(=O)NCc3ccc(OC(F)(F)F)cc3)C2)n1 | 1b | replicon | - | 0.4 µM |
| CCOc1nc(N)nc2c1ncn2[C@@H]1O[C@@H]2COP(=O)(OC(C)C)O[C@H]2[C@@]1(C)F | 2a | replicon | 68 d | 0.8 µM |
| C=CC1CC1(NC(=O)[C@@H]1C[C@@H](Oc2cc(-c3ccccc3)nc3cc(OC)ccc23)CN1C(=O)[C@H](C1CCCCC1)N1CCCCC1)C(=O)OCC | 1b | replicon | - | <100 µM |
| CCCCOc1ccc(N(C(N)=O)c2nc(-c3ccc(F)c(F)c3)cs2)cc1C(F)(F)F | - | - | - | <1 µM |
| O=C(O)/C=C/c1ccc(NC(=O)C2(NC(=O)c3ccc4c(c3)nc(-c3ccoc3)n4C3CCCCC3)CCC2)cc1 | 1b M423T | replicon | - | 2.4 µM |
| Nc1n[nH]c2ccc(Cn3c(C(=O)O)c(-c4ccc[nH]c4=O)c4c5occc5c(F)cc43)cc12 | - | replicon | - | <0.5 µM |
| CCCCCOc1ccc(N(C(=O)OC)c2nc(-c3ccc(F)cc3)cs2)cc1F | - | - | - | <1 µM |
| CN(C)[C@@H](C(=O)N1CCC[C@@H]1c1ncc(-c2ccc(-c3cnc(-c4cnc([C@H]5CCCN5C(=O)[C@@H](c5ccccc5)N(C)C)[nH]4)cn3)cc2)[nH]1)c1ccccc1 | 1b | - | - | 0.001–0.099 µM |
| NC(=O)c1cccc(Cn2c(C(=O)O)c(-c3ccc[nH]c3=O)c3c4occc4c(F)cc32)c1 | - | replicon | - | <0.5 µM |
| CSc1cccc(F)c1-c1cc(-c2cccc(NC(=O)C(Cl)Cl)c2)on1 | - | replicon | - | ≤10 µM |
| COC(=O)N[C@H](C(=O)N1CCC[C@@H]1C1=NCC(c2cnc(-c3ccc(-c4cnc([C@H]5CCCN5C(=O)[C@@H](NC(=O)OC)C(C)C)[nH]4)c(F)c3)nc2)=N1)C(C)C | 1b | - | - | 0.00001–0.000999 µM |
| CCCC(NC(=O)[C@@H]1C[C@@H](OC(=O)N2CCc3ccccc3C2)CN1C(=O)C(C)N1CCCCC1)C(=O)C(=O)NC1CC1 | 1b | replicon | - | >100 µM |
| NC(=O)c1ccc(F)c(Cn2c(C(=O)O)c(-c3ccc[nH]c3=O)c3c4occc4ccc32)c1 | - | replicon | - | <0.5 µM |
| CN(C)[C@@H](C(=O)N1CCC[C@H]1c1ncc(-c2ccc(-c3ccc(-c4cnc([C@@H]5CCCN5C(=O)[C@@H](c5ccccc5)N(C)C)[nH]4)cn3)cc2)[nH]1)c1ccccc1 | 1b | - | - | 0.00001–0.000999 µM |
| C=CC1CC1(NC(=O)[C@@H]1C[C@@H](Oc2cc(-c3ccccc3)nc3cc(OC)ccc23)CN1C(=O)[C@@H](N1CCCCC1)C(C)(C)C)C(=O)O | 1b | replicon | - | <100 µM |
| CCOc1nc(NCc2c(F)cc(OC)cc2F)nc2ccc(-c3ccc(F)cc3)nc12 | - | replicon | - | <0.1 µM |
| CCCCCc1nc(-c2cn(Cc3ccc(C(F)(F)F)cc3F)c3cc(N4CCN(C)CC4)c(F)cc3c2=O)no1 | 1b | replicon | - | >10 µM |
| CCCCCCCCOc1ccc(N(C(=O)NCC(=O)O)c2nc(-c3cccnc3)c(F)s2)cc1C(F)(F)F | - | - | - | <1 µM |
| C=CC1CC1(NC(=O)[C@@H]1C[C@@H](Oc2cc(-c3ccccc3)nc3cc(OC)ccc23)CN1C(=O)[C@H](CC(C)C)N1CCCCC1)C(=O)NS(=O)(=O)C1CC1 | 1b | replicon | - | <100 µM |
| Nc1ncnc2c1ncn2[C@@H]1CNC[C@@H]1OCP(=O)(O)O | - | replicon | - | >50 µM |
| Nc1cc(Cn2c(C(=O)O)c(-c3ccc[nH]c3=O)c3c4ccccc4ccc32)ccn1 | - | replicon | - | 1–10 µM |
| COc1cc(OC)c(CCC2(C3CCCC3)CC(O)=C(Sc3nc4nc(C)cc(C)n4n3)C(=O)O2)cc1Cl | WT | replicon | - | 2.3 µM |
| COc1cccc(C(F)(F)F)c1-c1cc(-c2cccc(NC(=O)C(Cl)Cl)c2)on1 | - | replicon | - | ≤10 µM |
| C/C=N/N(c1ccc(OCCCCCCCC)c(C(F)(F)F)c1)c1nc(-c2cccnc2)c(F)s1 | - | - | - | >10 µM |
| CCCCc1cccc(Cl)c1-c1cc(-c2cccc(NC(=O)C(Cl)Cl)c2)on1 | - | replicon | - | ≤10 µM |
| CC(C)(c1ccc(F)cc1)c1nc(-c2cn(Cc3ccc(F)cc3)c3cc(F)c(F)cc3c2=O)no1 | 1b | replicon | - | >10 µM |
| CN(C)[C@@H](C(=O)N1CCC[C@H]1c1ncc(-c2ccc(-c3ccc(-c4cnc([C@@H]5CCCN5C(=O)[C@@H](c5ccccc5)N(C)C)[nH]4)nc3)cc2)[nH]1)c1ccccc1 | 1b | - | - | 0.00001–0.000999 µM |
| CCc1ccc(S(=O)(=O)N2CCN(c3cc(OC)cc(OC)c3)CC2C(=O)N(Cc2ccccc2Cl)Cc2ccccc2Cl)cc1 | 1b | replicon | - | 37 µM |
| Cc1ccc(F)c(-c2cc(-c3cccc(NC(=O)C(Cl)Cl)c3)on2)c1Cl | - | replicon | - | ≤10 µM |
| COC(=O)N[C@@H](C(=O)N1CCC[C@H]1c1ncc(-c2ccc(-c3ccc(-c4cnc([C@@H]5CCCN5C(=O)Cc5ccccc5)[nH]4)cc3)cc2)[nH]1)c1ccccc1 | 1b | - | - | 0.001–0.099 µM |
| O=C(NS(=O)(=O)C1CC1)c1c(-c2ccc[nH]c2=O)c2c3ccccc3c(F)cc2n1Cc1cc([N+](=O)[O-])ccc1F | - | replicon | - | <1 µM |
| CC1(C)Oc2cc3oc(-c4cc(O)cc(O)c4)cc3cc2CC1O | - | replicon | - | 35.6 µM |
| CC(C)(c1ccc(F)cc1)c1nc(-c2cn(Cc3ccc(C(F)(F)F)cc3)c3cc(N4CCNC(=O)C4)c(F)cc3c2=O)no1 | 1b | replicon | - | <0.5 µM |
| CCCC(NC(=O)C1C2CCCC2CN1C(=O)[C@@H](N1CCCCC1)C(C)(C)C)C(=O)C(=O)NC1CC1 | 1b | replicon | - | <100 µM |
| COC(=O)N[C@@H](C(=O)N1CCC[C@H]1c1ncc(-c2ccc(-c3ccc(-c4cnc([C@@H]5CCCN5C(=O)Cc5cccnc5)[nH]4)cn3)cc2)[nH]1)c1ccccc1 | 1b | - | - | 0.00001–0.000999 µM |
| O=C(Nc1cccc(-c2cc(-c3c(Cl)ccc(Cl)c3Cl)no2)c1)C(Cl)Cl | - | replicon | - | >10 µM |
| CCOc1nc(NCc2ccc(F)cc2)nc2ccc(-c3ccc(CO)o3)nc12 | - | replicon | - | <0.1 µM |
| CCCC(NC(=O)C1C2CCCC2CN1C(=O)C(C)N1CCCCCC1)C(=O)C(=O)NC1CC1 | 1b | replicon | - | <100 µM |
| CCCCCCCCOc1ccc(N(C(N)=O)c2nc(-c3cccnc3)cs2)cc1 | - | - | - | <1 µM |
| C=CC1CC1(NC(=O)[C@@H]1C[C@@H](Oc2cc(-c3ccccc3)nc3cc(OC)ccc23)CN1C(=O)[C@H](c1ccccc1)N1CCCCC1)C(=O)O | 1b | replicon | - | <100 µM |
| C/C=N/N(c1ccc(OCCCCCCCC)c(C(F)(F)F)c1)c1nc(-c2cccnc2)cs1 | - | - | - | <1 µM |
| CN1CCCN(c2nc3c(cc2F)c(=O)c(-c2noc(C(C)(C)c4ccccc4)n2)cn3Cc2ccc(C(F)(F)F)cc2)CC1 | 1b | replicon | - | >10 µM |
| CCCCCCCCOc1ccc(N(C(=O)C(=O)OC)c2nc(-c3ccc(Cl)s3)cs2)cc1 | - | - | - | <1 µM |
| NS(=O)(=O)c1ccc(CNc2nc(NCC(F)(F)F)c3nc(-n4cncn4)ccc3n2)cc1 | - | replicon | - | <0.1 µM |
| CN1CCN(c2cccc(Cl)c2-c2cc(-c3cccc(NC(=O)C(Cl)Cl)c3)on2)CC1 | - | replicon | - | ≤10 µM |
| NS(=O)(=O)c1ccc(CNc2nc(NCC(F)(F)F)c3nc(-c4ccc(F)cc4)ccc3n2)cc1 | - | replicon | - | <0.1 µM |
| CN1CCN(c2cc3c(cc2F)c(=O)c(-c2nnc(Cc4ccccc4)o2)cn3Cc2ccc(Cl)cc2)CC1 | 1b | replicon | - | <2 µM |

3 of the rows above, restated:

structure	strain	read by	setting	result
CC(C)(C)CCN1C(=O)C(C2=NS(=O)(=O)c3cc(NS(C)(=O)=O)ccc3N2)=C(O)[C@@H]2C3CCC(CC3)[C@@H]21	1b	replicon	-	0.004 µM
CN1CCN(c2cccc(Cl)c2-c2cc(-c3cccc(NC(=O)C(Cl)Cl)c3)on2)CC1	-	replicon	-	≤10 µM
C=CC1CC1(NC(=O)[C@@H]1C[C@@H](Oc2cc(-c3ccccc3)nc3cc(OC)ccc23)CN1C(=O)[C@@H](N1CCCCC1)C(C)(C)C)C(=O)O	1b	replicon	-	<100 µM